Data source: PubChem BioAssay AID1259414 (Drosophila RNAi Screening Center, 2018)
Test: 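Fly genes that alter Wolbachia amount inside host cells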 (primary screen). System: Drosophila JW18 cells infected with Wolbachia. Knock-down reagent: long dsRNA against Drosophila genes, 0.25 µg dsRNA per well of a 384-well plate. Timing: 5 days. Conditions: cells persistently infected with Wolbachia before knock-down; no added drug. Detection: 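Imaged fluorescence in situ signal for Wolbachia 23S rRNA per DAPI-counted host cell, given as a robust z-score within each plate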. Reading the numbers: Wolbachia per cell robust z: higher = more Wolbachia per host cell than the plate typical. Call rule: 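Active if absolute robust z reaches 1.5 in two or more of three replicates, leaving out multi- or no-target dsRNAs, genes unexpressed in JW18 and A1 wells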.
The screen tested about 24,000 reagents; below is an unselected part of those with a known target gene and a result. In the full data, about 1,210 (5%) are marked active. 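Inactive calls also include excluded dsRNAs with several or no targets, genes unexpressed in JW18, and well A1, regardless of score.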 Entries without a mark were called inactive. Reagents against one gene are numbered here.

CG16959 scored Wolbachia per cell robust z, rep 1 = -1.57 (active); Wolbachia per cell robust z, rep 2 = -5.48; Wolbachia per cell robust z, rep 3 = 1.14.
CG31269 #1 scored Wolbachia per cell robust z, rep 1 = 0.199; Wolbachia per cell robust z, rep 2 = 0.606; Wolbachia per cell robust z, rep 3 = 1.43.
Knock-down of CG31269 #2 resulted in: Wolbachia per cell robust z, rep 1 = -0.667; Wolbachia per cell robust z, rep 2 = -2.61; Wolbachia per cell robust z, rep 3 = -1.04.
Against CG12081, the entry reads Wolbachia per cell robust z, rep 1 = 0.26; Wolbachia per cell robust z, rep 2 = 0.146; Wolbachia per cell robust z, rep 3 = -0.549.
Depletion of Diap1 gave: Wolbachia per cell robust z, rep 1 = 0.477; Wolbachia per cell robust z, rep 2 = 0.7; Wolbachia per cell robust z, rep 3 = -0.409.
CG11317 showed Wolbachia per cell robust z, rep 1 = -2.61; Wolbachia per cell robust z, rep 2 = -0.366; Wolbachia per cell robust z, rep 3 = 0.21.
For Mapmodulin, the values are Wolbachia per cell robust z, rep 1 = 0.47; Wolbachia per cell robust z, rep 2 = -0.497; Wolbachia per cell robust z, rep 3 = -0.148.
robl62A gave Wolbachia per cell robust z, rep 1 = -1.14; Wolbachia per cell robust z, rep 2 = -0.0534; Wolbachia per cell robust z, rep 3 = -0.181.
For CG9213 #1 the deposit lists Wolbachia per cell robust z, rep 1 = 0.48; Wolbachia per cell robust z, rep 2 = 1.05; Wolbachia per cell robust z, rep 3 = -0.266.
Knock-down of CG9213 #2 resulted in: Wolbachia per cell robust z, rep 1 = 0.656; Wolbachia per cell robust z, rep 2 = 0.855; Wolbachia per cell robust z, rep 3 = 1.67.
With knock-down of UbcE2M the results were Wolbachia per cell robust z, rep 1 = 2.65 (active); Wolbachia per cell robust z, rep 2 = 1.12; Wolbachia per cell robust z, rep 3 = 1.93.
Silencing of CG10005 resulted in: Wolbachia per cell robust z, rep 1 = 0.0293; Wolbachia per cell robust z, rep 2 = -6.71; Wolbachia per cell robust z, rep 3 = 1.66.
Silencing of CG9919 came out at: Wolbachia per cell robust z, rep 1 = 0.0571; Wolbachia per cell robust z, rep 2 = -1.74; Wolbachia per cell robust z, rep 3 = -0.00658.
Against CG9471 #1, the values are Wolbachia per cell robust z, rep 1 = -5.36 (active); Wolbachia per cell robust z, rep 2 = -0.309; Wolbachia per cell robust z, rep 3 = -4.68.
With knock-down of CG9471 #2 the results were Wolbachia per cell robust z, rep 1 = 2.22; Wolbachia per cell robust z, rep 2 = 1.21; Wolbachia per cell robust z, rep 3 = 1.11.
With knock-down of vkg, the screen gave Wolbachia per cell robust z, rep 1 = -0.318; Wolbachia per cell robust z, rep 2 = 0.572; Wolbachia per cell robust z, rep 3 = 0.434.
Depletion of zda #1 resulted in: Wolbachia per cell robust z, rep 1 = -1.05; Wolbachia per cell robust z, rep 2 = -0.378; Wolbachia per cell robust z, rep 3 = -0.798.
zda #2 gave Wolbachia per cell robust z, rep 1 = -1.46 (active); Wolbachia per cell robust z, rep 2 = -1.57; Wolbachia per cell robust z, rep 3 = -1.75.
With knock-down of ND-SGDH, the screen gave Wolbachia per cell robust z, rep 1 = -0.253; Wolbachia per cell robust z, rep 2 = -0.984; Wolbachia per cell robust z, rep 3 = -0.29.
Silencing of Hers #1 came out at: Wolbachia per cell robust z, rep 1 = -0.823; Wolbachia per cell robust z, rep 2 = -0.296; Wolbachia per cell robust z, rep 3 = 0.243.
With knock-down of Hers #2, the record shows Wolbachia per cell robust z, rep 1 = -1.5 (active); Wolbachia per cell robust z, rep 2 = -1.65; Wolbachia per cell robust z, rep 3 = -0.986.
Against Hers #3, the values are Wolbachia per cell robust z, rep 1 = -1.35; Wolbachia per cell robust z, rep 2 = -2.82; Wolbachia per cell robust z, rep 3 = -1.05.
After knock-down of CG12025 the results were Wolbachia per cell robust z, rep 1 = -1.38; Wolbachia per cell robust z, rep 2 = 0.242; Wolbachia per cell robust z, rep 3 = -2.12.
dhd #1 scored Wolbachia per cell robust z, rep 1 = -0.405; Wolbachia per cell robust z, rep 2 = -0.779; Wolbachia per cell robust z, rep 3 = -0.0823.
After knock-down of dhd #2, the record shows Wolbachia per cell robust z, rep 1 = 0.612; Wolbachia per cell robust z, rep 2 = -1.47; Wolbachia per cell robust z, rep 3 = 0.59.
Depletion of CG14718 gave: Wolbachia per cell robust z, rep 1 = -0.561; Wolbachia per cell robust z, rep 2 = 0.385; Wolbachia per cell robust z, rep 3 = -0.315.
With knock-down of CG5342, the screen gave Wolbachia per cell robust z, rep 1 = -0.208; Wolbachia per cell robust z, rep 2 = -0.769; Wolbachia per cell robust z, rep 3 = -0.441.
Against mat #1 the deposit lists Wolbachia per cell robust z, rep 1 = 0.169; Wolbachia per cell robust z, rep 2 = 0.128; Wolbachia per cell robust z, rep 3 = -0.969.
mat #2 showed Wolbachia per cell robust z, rep 1 = -0.255; Wolbachia per cell robust z, rep 2 = -1.07; Wolbachia per cell robust z, rep 3 = -0.00597.
For mat #3, the entry reads Wolbachia per cell robust z, rep 1 = -0.276; Wolbachia per cell robust z, rep 2 = 0.918; Wolbachia per cell robust z, rep 3 = 0.107.
